Drawing on publication PMC8044140 (Communications Biology, 2021), this text covers Kd for one sequence.

This series addresses PefR H114A (Streptococcus agalactiae) (UniProt Q8E4J9). The experiment in a line: fluorescence polarization. To be noted: hemin added; FP: 40 mM HEPES/Na pH 7.4, 500 mM NaCl, 10% glycerol, 10 nM DNA, room temperature; recombinant protein; protein details: C-terminal HRV3C site-6xHis, removed; label: 5'-FAM on antisense strand.

In general, Kd refers to the constant that tells how readily two partners part at equilibrium.

Construct, isoform or probe ends are uncertain for at least one entry.

As for “GCTATTATAAAATAGTTCTCACGATAACTAAAATAATG (double strand) [pefAB operator 38 bp]”, the dissociation constant (Kd) was determined as 25 nM.
